# Deep mutational scan of the Zika virus protease

Source: Ni et al. 2025 (doi:10.1038/s41467-025-63602-z), supplementary data.

Protein: NS2B and the protease part of NS3 of Zika virus strain MR766. Positions count along the chain below; NS2B spans 2-131 and NS3 starts at 132.
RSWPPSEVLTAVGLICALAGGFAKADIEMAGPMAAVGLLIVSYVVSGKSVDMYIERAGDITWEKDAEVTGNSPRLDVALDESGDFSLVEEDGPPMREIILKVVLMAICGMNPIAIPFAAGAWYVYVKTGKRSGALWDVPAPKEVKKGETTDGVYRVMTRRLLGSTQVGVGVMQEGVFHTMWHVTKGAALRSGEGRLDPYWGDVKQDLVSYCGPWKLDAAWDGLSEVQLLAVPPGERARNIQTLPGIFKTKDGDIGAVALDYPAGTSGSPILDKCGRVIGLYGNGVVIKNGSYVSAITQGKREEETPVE

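Libraries of single mutants were passaged as virus pools on Huh-7.5 cells. The effect is the change in frequency of a mutant, normalised to wild type, as a mean of three replicate libraries (two for positions 207-308).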

Scale: log2 effect, wild type = 0; the lower, the more harmful to the virus.
A change reads original residue, position, new residue.
This list holds changes to glutamate only.
Values above 0 are not proof of better growth: six high scorers were tested one by one, five grew less well than wild type and one about as well.
Position 1 still belongs to NS2A. In the paper, -1 or higher counts as tolerated.
Positions 1-103, 104-206 and 207-308 were made and measured as separate libraries.

- T165E: -4.93
- Q166E: -5.55
- V167E: -6.22
- G168E: -4.66
- V169E: -5.72
- G170E: -4.94
- V171E: -5.18
- M172E: -5.96
- Q173E: -1.56
- G175E: -4.25
- V176E: -4.94
- F177E: -5.04
- H178E: -4.53
- T179E: -5.25
- M180E: -4.48
- W181E: -4.64
- H182E: -3.89
- V183E: -5.03
- T184E: -5.66
- K185E: -4.76
- G186E: -5.44
- A187E: -5.42
- A188E: -3.81
- L189E: -5.38
- R190E: -5.30
- S191E: -4.28
- G192E: -4.02
- G194E: -4.99
- R195E: -5.67
- L196E: -5.03
- D197E: -5.28
- P198E: -6.41
- Y199E: -4.75
- W200E: -6.58
- G201E: -6.26
- D202E: -1.17
- V203E: -6.91
- K204E: -6.40
- Q205E: -6.32
- D206E: -6.74
- L207E: -7.24
- V208E: -7.79
- S209E: -6.24
- Y210E: -6.86
- C211E: -3.07
- G212E: -6.81
- P213E: -7.03
- W214E: -7.49
- K215E: -6.91
- L216E: -6.89
- D217E: -0.76
- A218E: -6.81
- A219E: 0.91
- W220E: -5.07

The first 4 entries again:

substitution	effect (log2)
T165E	-4.93
Q166E	-5.55
V167E	-6.22
G168E	-4.66